By UniProt entry, the sequences of proteins in these tests, tags left out. Residues count along the entry.
UniProt P0C216, 29-398 limits assumed: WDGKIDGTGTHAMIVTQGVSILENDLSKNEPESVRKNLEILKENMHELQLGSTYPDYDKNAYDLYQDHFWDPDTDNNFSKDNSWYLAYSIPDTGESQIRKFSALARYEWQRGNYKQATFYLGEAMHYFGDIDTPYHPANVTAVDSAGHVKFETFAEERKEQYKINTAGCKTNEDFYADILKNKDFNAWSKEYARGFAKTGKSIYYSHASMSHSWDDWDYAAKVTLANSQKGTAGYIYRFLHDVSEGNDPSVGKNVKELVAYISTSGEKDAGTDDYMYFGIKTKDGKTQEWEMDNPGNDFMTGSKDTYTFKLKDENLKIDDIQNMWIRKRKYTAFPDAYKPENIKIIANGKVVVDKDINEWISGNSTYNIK

According to US7968306B2, “Method for measuring activity of a specific fraction of albumin” (Wisconsin Alumni Research Foundation, priority 2002, dated 2011):

Biological target: PLC (Clostridium perfringens) (Clostridium perfringens, UniProt P0C216)

Protein-I: protein purified from human serum by G100, MonoQ and Vydac C4 columns; identified as albumin (SFA)
effect on PLC activity: little effect on the PLC activity
